US20260034277A1, “SYSTEMS AND METHODS FOR PATHOGEN INACTIVATION OF BLOOD PRODUCTS” (Cerus Corporation, priority 2024, published 2026)

Experiment: Residual amotosalen (S-59) pre- and post-UVA in treated platelets, HPLC, manual dosing
Format: physicochemical
Conditions: for Pre-UVA S-59: platelets 47% plasma/53% PAS
Method: Multiple studies were performed to determine the level of residual compound remaining after photochemical treatment of platelets with a psoralen for pathogen inactivation. More specifically, the studies were performed using a range of platelet volumes (e.g., 200 mL-450 mL; 50 mL volume increments) and using a single initial input concentration of the psoralen compound, amotosalen (S-59) by changing input volume. For each volume tested, units of platelets, prepared in 47% plasma/53% PAS, were pooled and split into two to three individual units, each in an illumination container of an INTERCEPT® Blood System processing set. The individual units were each dosed with amotosalen from an initial starting concentration (e.g., stock solution) at a volume needed to achieve a final 70 μM target concentration for each platelet volume, mixed well, and subjected to illumination with UVA light. The doses of UVA light tested for each volume included, for example, one or more light doses ranging from 2.5 J/cm^2 to 6.5 J/cm^2. (e.g., 2.5-4.5 J/cm^2 for 200 mL, 3.5-4.0 J/cm^2 for 250 mL 4.5-6.5 J/cm^2 for 300 mL, 5.2 J/cm^2 for 350 mL, 5.5-6.5 J/cm^2 for 400 mL, 6.4-6.5 J/cm^2 for 450 mL). UVA treatment was performed in the illumination container using an illuminator device with LED light (e.g., narrow bandwidth) having peak wavelength between 340-350 nm. Samples were collected both pre- and post-UVA illumination for HPLC analysis of amotosalen concentration.
From the multiple studies above, UVA light doses that provided low residual amotosalen levels (e.g., less than 7.5 μM) post-UVA treatment were selected for each specified platelet volume. These light doses are shown in Table 1 below, together with a corresponding measured volume of platelets, which the light dose may be used in conjunction with. This exemplary light dose and volume relationship identified in the studies may be further defined in the graph of FIG. 4A, which plots UVA light dose versus volume for achieving low residual amotosalen levels.
Each of the 40 μM, 50 μM, 60 μM and 70 μM test conditions used 250 mL sample volumes and UVA light doses of 3.8 J/cm^2. Amotosalen concentrations were determined before and after illumination with UVA.

For Cc1oc2c(C)c3oc(=O)cc(C)c3cc2c1COCCN [S-59, 3-(2-aminoethoxymethyl)-2,5,9-trimethylfuro[3,2-g]chromen-7-one], the “Pre-UVA S-59” value (200 mL, target 70 μM, UVA 3.2 J/cm^2) was 71.1 ± 2.4 µM, the “Pre-UVA S-59” value (250 mL, target 70 μM, UVA 3.8 J/cm^2) was 71.5 ± 3.7 µM and the “Pre-UVA S-59” value (300 mL, target 70 μM, UVA 4.5 J/cm^2) was 72.5 ± 3.2 µM. For the same molecule, the “Pre-UVA S-59” value (350 mL, target 70 μM, UVA 5.2 J/cm^2) was 74.8 ± 2.0 µM, the “Pre-UVA S-59” value (400 mL, target 70 μM, UVA 6.0 J/cm^2) was 69.8 ± 2.6 µM and the “Pre-UVA S-59” value (450 mL, target 70 μM, UVA 6.4 J/cm^2) was 68.5 ± 0.8 µM. It also gave a Pre-UVA amotosalen concentration (target 40 μM, 250 mL, UVA 3.8 J/cm^2) of 40.8 ± 1.2 µM, a Pre-UVA amotosalen concentration (target 50 μM, 250 mL, UVA 3.8 J/cm^2) of 50.7 ± 3.3 µM and a Pre-UVA amotosalen concentration (target 60 μM, 250 mL, UVA 3.8 J/cm^2) of 62.0 ± 0.3 µM. For the same molecule, the Pre-UVA amotosalen concentration (target 70 μM, 250 mL, UVA 3.8 J/cm^2) was 71.5 ± 3.2 µM.
